What all share (test): EMSA
For orientation: Mobility shift assays separate free from complexed probe on a gel.

Data set [1] has as its system R.NgoAVII (Neisseria gonorrhoeae FA1090). The settings on record: 5 mM Ca-acetate, EMSA: 1 nM 33P-DNA, 1-500 nM protein monomer, 40 mM Tris-acetate pH 8.3 (25°C), 0.1 mM EDTA (NgoAVII: 5 mM Ca-acetate instead), 0.1 mg/ml BSA, 10% glycerol, 15 min, recombinant protein, protein details: His6, N-terminal (not removed), label: 33P.
For data set [2], the system named is N.NgoAVII (Neisseria gonorrhoeae FA1090). The settings on record: 5 mM Ca-acetate, EMSA: 1 nM 33P-DNA, 1-500 nM protein monomer, 40 mM Tris-acetate pH 8.3 (25°C), 0.1 mM EDTA (NgoAVII: 5 mM Ca-acetate instead), 0.1 mg/ml BSA, 10% glycerol, 15 min, recombinant protein, label: 33P.
The subject of data set [3] is R.NgoAVII-B3 (Neisseria gonorrhoeae FA1090). The settings on record: 5 mM Ca-acetate; EMSA: 1 nM 33P-DNA, 1-500 nM protein monomer, 40 mM Tris-acetate pH 8.3 (25°C), 0.1 mM EDTA (NgoAVII: 5 mM Ca-acetate instead), 0.1 mg/ml BSA, 10% glycerol, 15 min; recombinant protein; label: 33P.

For at least one entry, the source does not settle the construct or the ends of the probe. For some assays here: A negative result means that nothing was seen under these conditions. For some assays here: A weaker result is weaker than the reference pair of the same experiment. For some assays here: At least one verdict was read from the data and is not stated in words by the source.

Take “TACAATCGATAATAGCCGCCGTGCGAGCCCATT (double strand) [33 bp cognate duplex]”: the binding result in data set [1] is “binds”; in data set [2], “no binding”; in data set [3] it was “binds”.

With “TACAATCGATAATACCAGGCGTGCGAGCCCATT (double strand) [33 bp non-cognate duplex]”, the binding result in data set [1] (little or no binding) and in data set [2] (little or no binding) was “binds more weakly” throughout.

Values taken from publication PMC4267653, “DNA cleavage by CgII and NgoAVII requires interaction between N- and R-proteins and extensive nucleotide hydrolysis” (Nucleic Acids Research, 2014).
